PubChem BioAssay AID1259414 – Drosophila RNAi Screening Center | 2018

Aim: 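Host factors increasing or decreasing Wolbachia levels in cultured fly cells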 (primary screen)
Cell system: Drosophila JW18 cells infected with Wolbachia
Reagents: long dsRNA against Drosophila genes, 0.25 µg dsRNA per well of a 384-well plate
Timing: 5 days
Challenge: cells persistently infected with Wolbachia before knock-down; no added drug
Measured: 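Automated imaging of bacterial rRNA staining divided by host cell count, reported as plate-normalised robust z-score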
Reading the numbers: Wolbachia per cell robust z: higher = more Wolbachia per host cell than the plate typical
Call rule: 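Active if absolute robust z reaches 1.5 in two or more of three replicates, leaving out multi- or no-target dsRNAs, genes unexpressed in JW18 and A1 wells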
The screen tested about 24,000 reagents; this is an unselected part of those that have a named target and a result. Over the whole deposit, about 1,210 (5%) are marked active. 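Inactive calls also include excluded dsRNAs with several or no targets, genes unexpressed in JW18, and well A1, regardless of score.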 Reagents against one gene are numbered here. A plus sign joins genes that one reagent is predicted to hit.

| predicted target | reagent | Wolbachia per cell robust z, rep 1 | Wolbachia per cell robust z, rep 2 | Wolbachia per cell robust z, rep 3 | Outcome |
| --- | --- | --- | --- | --- | --- |
| CG5805 | 1 | -0.367 | -1.78 | -0.00416 | inactive |
| CG5805 | 2 | 0.344 | -0.63 | 1.11 | inactive |
| CG5805 | 3 | -3.67 | -0.368 | -0.803 | inactive |
| CG4709 | 1 | -6.12 | -0.722 | -0.862 | inactive |
| Spp (Signal peptide peptidase) | 1 | -2.78 | -0.547 | -0.871 | inactive |
| CG4324 | 1 | -5.16 | -1.06 | -1.47 | inactive |
| CG4324 | 2 | 1.58 | 0.893 | 1.06 | inactive |
| eIF3d1 (eukaryotic translation initiation factor 3 subunit d1) | 1 | 0.287 | 0.993 | 0.846 | inactive |
| CG8034 | 1 | 0.707 | 0.174 | 1.06 | inactive |
| CG8034 | 2 | 0.532 | 0.376 | 0.277 | inactive |
| bcd (bicoid) | 1 | -0.175 | -0.563 | -0.206 | inactive |
| bcd (bicoid) | 2 | -1.07 | 1.06 | -1.37 | inactive |
| CG4613 | 1 | -1.53 | -1.12 | 0.651 | inactive |
| CG4613 | 2 | -1 | 0.17 | 0.764 | inactive |
| NiPp1 (Nuclear inhibitor of Protein phosphatase 1) | 1 | -1.43 | -0.685 | -0.00273 | inactive |
| NiPp1 (Nuclear inhibitor of Protein phosphatase 1) | 2 | -1.22 | -0.291 | -1.74 | inactive |
| Obp83a (Odorant-binding protein 83a) | 1 | -0.392 | -0.355 | -2.15 | inactive |
| Obp83a (Odorant-binding protein 83a) | 2 | -1.12 | 0.386 | -0.295 | inactive |
| CG17239 | 1 | -0.965 | 0.993 | 0.945 | inactive |
| CG11929 | 1 | -2.68 | 0.381 | 0.286 | inactive |
| CG42359 | 1 | -0.0378 | 1.54 | 1.1 | inactive |
| dpr14 (defective proboscis extension response 14) | 1 | 0.0464 | -0.539 | -0.314 | inactive |
| dpr14 (defective proboscis extension response 14) | 2 | -0.166 | 0.586 | 0.468 | inactive |
| scpr-B (SCP-containing protein B) | 1 | 0.216 | -0.109 | -2.78 | inactive |
| CG33796 | 1 | -1.01 | 0.248 | -1.33 | inactive |
| Spt6 | 1 | 4.08 | 0.959 | 2.23 | active |
| Ir68a (Ionotropic receptor 68a) | 1 | -0.668 | 0.353 | -2.78 | inactive |
| CG32440 | 1 | -6.91 | -0.708 | -0.926 | inactive |
| Klp59D (Kinesin-like protein at 59D) | 1 | -3.47 | 0.473 | 0.43 | inactive |
| Klp59D (Kinesin-like protein at 59D) | 2 | -0.81 | -0.0561 | 0.0527 | inactive |
| Klp59D (Kinesin-like protein at 59D) | 3 | 0.828 | 0.901 | -0.0169 | inactive |
| CG6770 | 1 | -0.696 | -0.0234 | -3.47 | inactive |
| CG6770 | 2 | 0.835 | 1.19 | 0.151 | inactive |
| CG6569 | 1 | 0.46 | 0.429 | 0.177 | inactive |
| Jhbp13 (Juvenile hormone binding protein 13) | 1 | 1.22 | 0.346 | -4.82 | inactive |
| CG5808 | 1 | -0.25 | -0.728 | 0.705 | inactive |
| 5-HT7 (5-hydroxytryptamine (serotonin) receptor 7) | 1 | -3.88 | -0.365 | 0.232 | inactive |
| 5-HT7 (5-hydroxytryptamine (serotonin) receptor 7) | 2 | 0.0529 | 0.242 | 0.0788 | inactive |
| Hsp60B (Heat shock protein 60B) | 1 | -0.148 | 1.21 | -0.227 | inactive |
| Ork1 (Open rectifier K[+] channel 1) | 1 | -3.19 | 0.0385 | -8.1 | inactive |
| BNIP3 | 1 | 0.111 | 1.17 | -0.769 | inactive |
| Tailor | 1 | 0.206 | -0.963 | -0.734 | inactive |
| CG10834 | 1 | -1.05 | -0.353 | 0.474 | inactive |
| tnc (tenectin) | 1 | -0.0347 | -1.65 | 0.955 | inactive |
| tnc (tenectin) | 2 | 0.1 | -0.297 | 0.969 | inactive |
| L (Lobe) | 1 | 0.0856 | 0.0816 | -1.55 | inactive |
| L (Lobe) | 2 | 0.373 | -0.275 | 0.627 | inactive |
| L (Lobe) | 3 | -0.353 | -1.1 | -0.456 | inactive |
| CG16815 | 1 | -0.937 | 0.53 | -3.63 | inactive |
| CG16815 | 2 | 0.402 | 0.46 | 0.293 | inactive |
| Polr3I (RNA polymerase III subunit I) | 1 | 0.589 | 0.31 | -0.609 | inactive |
| asRNA:CR42743 + CG34162 | 1 | -9.02 | 1.11 | -0.12 | inactive |
| asRNA:CR42743 + CG34162 | 2 | 0.0209 | 1.32 | 1.09 | inactive |
| tamo | 1 | -0.827 | 0.543 | 0.324 | inactive |
| tamo | 2 | 1.71 | -0.967 | -0.239 | inactive |
| Vps39 (Vacuolar protein sorting 39) | 1 | -3.2 | -0.607 | -0.997 | inactive |
| Srp9 (Signal recognition particle 9) | 1 | -2.04 | -4 | -4.81 | inactive |
| CG17168 | 1 | 0.743 | -0.793 | 0.511 | inactive |
| CG17168 | 2 | 0.0214 | 0.642 | 0.567 | inactive |
| CG9890 | 1 | -0.416 | 0.196 | 0.396 | inactive |
| CG9890 | 2 | 0.318 | 0.261 | -0.0392 | inactive |
| daw (dawdle) | 1 | -0.0698 | -0.574 | -0.533 | inactive |
| daw (dawdle) | 2 | 0.346 | -0.257 | -0.863 | inactive |
| daw (dawdle) | 3 | -3.49 | -0.165 | -5.32 | active |
| zyd (zydeco) | 1 | 0.573 | 0.403 | 0.988 | inactive |
| CG15152 | 1 | 1.22 | -0.0577 | -0.308 | inactive |
| mod(mdg4) (modifier of mdg4) | 1 | 1.27 | 1.93 | 0.0543 | inactive |
| mod(mdg4) (modifier of mdg4) | 2 | -1.17 | 0.507 | 0.376 | inactive |
| mod(mdg4) (modifier of mdg4) | 3 | -0.852 | 0.546 | -0.566 | inactive |
| eas (easily shocked) | 1 | 0.847 | 1.28 | 1.09 | inactive |
| eas (easily shocked) | 2 | -0.928 | -0.162 | 0.784 | inactive |
| Faa (Fumarylacetoacetase) | 1 | -0.703 | -0.844 | -0.231 | inactive |
| CG7059 | 1 | -1.88 | -0.022 | -2.16 | inactive |
| CG7059 | 2 | 0.65 | 0.845 | 0.557 | inactive |
| CG7059 | 3 | 0.905 | 0.593 | 0.292 | inactive |
| CG31106 | 1 | 0.00663 | 0.113 | -0.99 | inactive |
| TBC1D23 (TBC1 domain family member 23) | 1 | -1.8 | -0.037 | -0.076 | inactive |
| TBC1D23 (TBC1 domain family member 23) | 2 | 0.872 | 2.38 | 1.07 | inactive |
| CG13962 | 1 | -0.458 | -0.188 | -0.625 | inactive |
| CG13962 | 2 | -0.224 | -1.04 | -5.73 | inactive |
| CG15548 | 1 | 0.286 | 0.679 | -2.52 | inactive |
| CG15548 | 2 | 0.0972 | 0.779 | 2.71 | inactive |
| CG9436 | 1 | 0.276 | -0.576 | 0.674 | inactive |
| Tasp1 (Taspase 1) | 1 | 0.546 | 0.183 | -0.124 | inactive |
| LysP (Lysozyme P) | 1 | 0.0254 | 0.655 | 1.06 | inactive |
| LysP (Lysozyme P) | 2 | 0.111 | 1.3 | 0.15 | inactive |
| uzip (unzipped) | 1 | 0.684 | 0.676 | -0.228 | inactive |
| uzip (unzipped) | 2 | -4.24 | 0.268 | -0.694 | inactive |

Reagents listed so far with an active call:
| predicted target | reagent | Wolbachia per cell robust z, rep 1 | Wolbachia per cell robust z, rep 2 | Wolbachia per cell robust z, rep 3 | Outcome |
| --- | --- | --- | --- | --- | --- |
| Spt6 | 1 | 4.08 | 0.959 | 2.23 | active |
| daw (dawdle) | 3 | -3.49 | -0.165 | -5.32 | active |
